Measured values from several laboratories, pooled; numbers as filed in NIAID ChemDB.

Shared fields: tests in culture; agent: Toxoplasma gondii

ECn: concentration that inhibits the pathogen or its effect by n%. A number after MIC or MFC names an inhibition level or a share of isolates. Conditions beyond the fields shown may differ between rows. Inhibition is in % at the dose shown (toxicity tests: loss of growth or viability). Blank or dashed fields: not listed here.

smiles	strain or isolate	cell line	endpoint	dose	result
Cc1nc(N)nc(N)c1C#CC1CCCC1	-	-	MIC	-	0.25 µg/mL
CC1(C)CC2=C(O1)C(=O)c1cc3scnc3cc1C2=O	-	THP-1	EC50	-	0.0041 µM
N#Cc1ccc(C(=O)NC(=O)c2ccccc2O)cc1	-	Human foreskin fibroblasts	MIC50	-	>1 µM
CN1CCC(c2cc(-c3ccncc3)c(-c3ccc(F)cc3)[nH]2)CC1	TG-PKG FLAG T761M-KO	-	EC50	-	4.9 µM
CCc1nc(N)nc(N)c1-c1ccc(Cl)cc1	RH	-	EC90	-	0.47 µg/mL
OC[C@H]1O[C@@H](n2cnc3c(SCc4ccc(OC(F)(F)F)cc4)ncnc32)[C@H](O)[C@@H]1O	RH (WILD TYPE)	-	inhibition	25 µM	45.5%
COC(=O)c1cc2c(s1)C(=O)C=CC2=O	-	THP-1	EC50	-	0.001 µM
O=C(NC(=S)Nc1cccc(Cl)c1)c1ccccc1COc1ccc(Cl)cc1	RH beta-gal	Human foreskin fibroblasts (HFF)	EC50	-	83 µM
O=C(NC(=O)c1ccccc1O)c1ccc([N+](=O)[O-])cc1	-	Human foreskin fibroblasts	MIC50	-	>1 µM
COc1ccc(OC)c2c1ccn2CCNC(=O)OC(C)(C)C	RH	THP-1	EC50	-	0.0012 µM
Cc1occc1C(=O)NC(=O)c1ccccc1O	-	Human foreskin fibroblasts	MIC90	-	>10 µM
Cc1cccc(NC(=S)NC(=O)c2ccccc2COc2ccc(Cl)cc2)c1	RH beta-gal	Human foreskin fibroblasts (HFF)	EC50	-	114 µM
CCc1ccc(C(=O)NC(=O)c2ccccc2OC)cc1	-	Human foreskin fibroblasts	MIC50	-	>0.25 µM
N#Cc1ccc(CSc2ncnc3c2ncn3[C@@H]2O[C@H](CO)[C@@H](O)[C@H]2O)cc1	RH adenosine kinase-deficient	-	inhibition	5 µM	0%
CC1(C)CC2=C(O1)C(=O)C(Br)=CC2=O	-	THP-1	EC50	-	0.001 µM
O=C(NC(=O)c1ccccc1O)c1cccc(CCl)c1	-	Human foreskin fibroblasts	MIC90	-	>1 µM
Cc1nc(N)nc(N)c1C#CC(C)(C)C	-	-	MIC	-	0.025 µg/mL
CCc1ccc(C(=O)Nc2n[nH]c3ccccc23)cc1	-	Human foreskin fibroblasts	MIC50	-	>0.125 µM
O=C(NC(=S)Nc1ccccc1I)c1ccccc1COc1ccc(Cl)cc1	RH beta-gal	Human foreskin fibroblasts (HFF)	EC50	-	57 µM
Cc1cc2c(o1)C(=O)c1cc3ncsc3cc1C2=O	-	THP-1	EC50	-	0.0007 µM
COc1ccc(OCc2ccccc2C(=O)NC(=S)Nc2c(Br)cccc2Br)cc1	RH beta-gal	Human foreskin fibroblasts (HFF)	EC50	-	24 µM
N#CC(c1ccc(Cl)cc1)c1c(Cl)cc(-n2ncc(=O)[nH]c2=O)cc1Cl	RH	-	inhibition	0.01 µg/mL	99.9%
Cc1ccc(NC(=S)NC(=O)c2ccccc2COc2ccc(F)cc2)cc1	RH beta-gal	Human foreskin fibroblasts (HFF)	EC50	-	8 µM
CC(C)(C)OC(=O)NCCn1ccc2c1C(=O)C=CC2=O	RH	THP-1	EC50	-	0.0021 µM
O=C(NC(=S)Nc1c(Cl)cccc1Cl)c1ccccc1COc1ccc(F)cc1	RH beta-gal	Human foreskin fibroblasts (HFF)	EC50	-	53 µM
O=C(NC(=O)c1ccccc1O)c1ccc(OCc2ccccc2)cc1	-	Human foreskin fibroblasts	MIC90	-	>0.25 µM
O=C(NC(=S)Nc1c(Br)cccc1Br)c1ccccc1COc1ccc(Cl)cc1	RH beta-gal	Human foreskin fibroblasts (HFF)	EC50	-	100 µM
O=C(NC(=O)c1ccccc1O)c1ccccc1O	-	Human foreskin fibroblasts	MIC50	-	>0.25 µM